In data set [1] the test system is strains of human rhinovirus (HRV). The experiment in a line: Antirhinoviral H1-HeLa cell culture assay (XTT cell protection, EC50), other HRV strains. It counts as cell-based, human rhinovirus in H1-HeLa cells. The protocol: (§1) Antirhinoviral H1-HeLa Cell Culture Assay:
In this cell protection assay, the ability of compounds to protect cells against HRV infection was measured by the XTT dye reduction method, which is described in Weislow et al., J. Natl. Cancer Inst. (1989), vol. 81, 577-586. H1-HeLa cells were infected with HRV-14 at a multiplicity of infection (m.o.i.) of 0.13 (virus particles/cell) or mock-infected with medium only. Infected or mock-infected cells were resuspended at 8×10^5 cells per mL, and incubated with appropriate concentrations of the compounds to be tested. Two days later, XTT/PMS was added to test plates and the amount of formazan produced was quantified spectrophotometrically at 450/650 nm. The EC50 value was calculated as the concentration of compound that increased the percentage of formazan production in compound-treated, virus-infected cells to 50% of that produced by compound-free, mock-infected cells. The 50% cytotoxic dose (CC50) was calculated as the concentration of compound that decreased the percentage of formazan produced in compound-treated, mock-infected cells to 50% of that produced by compound-free, mock-infected cells. The therapeutic index (TI) was calculated by dividing the CC50 value by the EC50 value.
(§2) All strains of human rhinovirus (HRV) for use in this assay were purchased from American Type Culture Collection (ATCC), except for HRV serotype-14 (produced from the infectious cDNA clone constructed by Dr. Robert Rueckert, Institute for Molecular Virology, University of Wisconsin, Madison, Wis.). HRV stocks were propagated and viral assays were performed in H1-HeLa cells (ATCC). Cells were grown in minimal essential medium with 10% fetal bovine serum, available from Life Technologies (Gaithersburg, Md.).

The test system of data set [2] is HRV-14. The experiment in a line: Antirhinoviral H1-HeLa cell culture assay (XTT cell protection, EC50), HRV-14. It counts as cell-based, human rhinovirus (HRV) serotype-14 in H1-HeLa cells. Here is the method: as §1
In this cell protection assay, the ability of compounds to protect cells against HRV infection was measured by the XTT dye reduction method, which is described in Weislow et al., J. Natl. Cancer Inst. […] H1-HeLa cells were infected with HRV-14 at a multiplicity of infection (m.o.i.) of 0.13 (virus particles/cell) or mock-infected with medium only. Infected or mock-infected cells were resuspended at 8×10^5 cells per mL, and incubated with appropriate concentrations of the compounds to be tested. Two days later, XTT/PMS was added to test plates and the amount of formazan produced was quantified spectrophotometrically at 450/650 nm. […] The therapeutic index (TI) was calculated by dividing the CC50 value by the EC50 value.
as §2
A general note: Tetrazolium assays rely on reduction of a dye to a coloured formazan, in cell work by metabolically active cells.

Each structure is given as a SMILES string.

As for `C#CC[C@@H](C(=O)N[C@H](/C=C/C(=O)OCC(C)(C)C)C[C@@H]1CCNC1=O)n1cccc(NC(=O)c2cc(C)on2)c1=O` (relative stereo) [Compound 32, trans-(2′S,3″″S,4S)-4-(2′-{3″-[(5′″-Methylisoxazole-3′″-carbonyl)amino]-2″-oxo-2″H-pyridin-1″-yl}-pent-4′-ynoylamino)-5-(2″″-oxopyrrolidin-3″″-yl)pent-2-enoic acid 2,2-Dimethylpropyl Ester], the TI in data set [1] (HRV-1A) was over 55; in data set [1] (HRV-2), over 95; in data set [1] (HRV-3) it was over 169; in data set [1] (HRV-9) it was over 20; in data set [1] (HRV-10), over 64; in data set [1] (HRV-16), over 54. Besides, the TI in data set [1] (HRV-25) is over 18; in data set [1] (HRV-39) it was over 24; in data set [1] (HRV-87), over 303; in data set [2] it was over 79.

On to `CCC(C(=O)N[C@H](/C=C/C(=O)OCC(C)(C)C)C[C@@H]1CCNC1=O)n1cccc(NC(=O)c2cc(C)on2)c1=O` (relative stereo) [Compound 42, trans-(2′S,3′″″S,4S)-4-[2′-(3″-{[1′″-(5″″-Methylisoxazol-3″″-yl)methanoyl]amino}-2′″-oxo-2′″H-pyridin-1′″-yl)butanoylamino]-5-(2′″″-oxopyrrolidin-3′″″-yl)pent-2-enoic Acid 2,2-Dimethylpropyl Ester], for which the TI in data set [1] (HRV-2) is over 62; in data set [1] (HRV-3), over 65; in data set [1] (HRV-9), over 19; in data set [1] (HRV-16), over 24; in data set [1] (HRV-25), over 16; in data set [1] (HRV-39), over 63. The compound further registered a TI in data set [2] of over 59.

Turning to `Cc1cc(C(=O)Nc2cccn(C(Cc3ccc(F)c(F)c3)C(=O)N[C@H](/C=C/C(=O)OCC(C)(C)C)C[C@@H]3CCNC3=O)c2=O)no1` (relative stereo) [Compound 47, trans-(2′S,3″″″S,4S)-4-[3′-(3″,4″-Difluorophenyl)-2′-(3′″-{[1″″-(5′″″-methylisoxazol-3′″″-yl)methanoyl]amino}-2″″-oxo-2″″H-pyridin-1″″-yl)propanoylamino]-5-(2″″″-oxopyrrolidin-3″″″-yl)pent-2-enoic Acid 2,2-Dimethylpropyl Ester], the TI in data set [1] (HRV-1A) was over 67; in data set [1] (HRV-2), over 75; in data set [1] (HRV-3) it was over 555; in data set [1] (HRV-9), over 82; in data set [1] (HRV-10), over 87; in data set [1] (HRV-16) it was over 204. Also, the TI is on record as over 51 in data set [1] (HRV-25), over 59 in data set [1] (HRV-39) and over 250 in data set [2].

`CCOC(=O)/C=C/[C@H](C[C@@H]1CCNC1=O)NC(=O)[C@H](Cc1ccc(F)cc1)n1cccc(NC(=O)c2cc(C)on2)c1=O` [Compound 25, trans-(2′S,3′″″S,4S)-4-(3′-(4″-Fluorophenyl)-2′-{3′″-[(5″″-methylisoxazole-3″″-carbonyl)amino]-2′-oxo-2′″H-pyridin-1′″-yl}propionylamino)-5-(2′″″-oxopyrrolidin-3′″″-yl)pent-2-enoic Acid Ethyl Ester]: the TI in data set [1] (HRV-1A) is over 667; in data set [1] (HRV-2) it was over 2500; in data set [1] (HRV-3), over 2500; in data set [1] (HRV-9) it was over 1000; in data set [1] (HRV-10), over 2500; in data set [1] (HRV-16), over 2000. In addition, the TI in data set [1] (HRV-25) is given as over 454; in data set [1] (HRV-39), over 1111; in data set [1] (HRV-87), over 1250; in data set [2] it was over 5000.

`CC[C@@H](C(=O)N[C@H](/C=C/C(=O)OC1CCCC1)C[C@@H]1CCNC1=O)n1cccc(NC(=O)c2cc(Cl)on2)c1=O` [Compound 29, trans-(2′S,3″″S,4S)-4-(2′-{3″-[(5′″-Chloroisoxazole-3′″-carbonyl)amino]-2″-oxo-2″H-pyridin-1″-yl}butyrylamino)-5-(2″″-oxopyrroldin-3″″-yl)pent-2-enoic Acid Cyclopentyl Ester]: the TI is reported as over 217 in data set [1] (HRV-1A), over 217 in data set [1] (HRV-10) and over 126 in data set [2].

Take `CC[C@@H](C(=O)N[C@H](/C=C/C(=O)OC(C)(C)C)C[C@@H]1CCNC1=O)n1cccc(NC(=O)c2cc(C)on2)c1=O` [Compound 34, trans-(2′S,3″″S,4S)-4-(2′-{3″-[(5′″-Methylisoxazole-3′″-carbonyl)amino]-2″-oxo-2″H-pyridin-1″-yl}butyrylamino)-5-(2″″-oxopyrrolidin-3″″-yl)pent-2-enoic Acid tert-Butyl Ester]: the TI in data set [1] (HRV-2) is given as over 64; in data set [1] (HRV-3), over 163; in data set [1] (HRV-9) it was over 16; in data set [1] (HRV-16), over 18; in data set [1] (HRV-25), over 10; in data set [1] (HRV-39), over 22. In addition, the TI is over 303 in data set [1] (HRV-87) and over 81 in data set [2].

Regarding `CCOC(=O)/C=C/[C@H](C[C@@H]1CCNC1=O)NC(=O)[C@@H]1CCc2ccc(NC(=O)c3cc(C)on3)c(=O)n21` [Compound 37, trans-(3′S,3′″S,4S)-4-({6′-[(5″-Methylisoxazole-3″-carbonyl)amino]-5′-oxo-1′,2′,3′,5′-tetrahydroindolizine-3′-carbonyl}amino)-5-(2′″-oxopyrrolidin-3′″-yl)-pent-2-enoic Acid Ethyl Ester], the TI in data set [1] (HRV-1A) is over 93; in data set [1] (HRV-2), over 270; in data set [1] (HRV-3), over 232; in data set [1] (HRV-9) it was over 82; in data set [1] (HRV-10), over 244; in data set [1] (HRV-16) it was over 138. Besides, the TI was over 61 in data set [1] (HRV-25), over 625 in data set [1] (HRV-39), over 172 in data set [1] (HRV-87) and over 62 in data set [2].

`CCOC(=O)/C=C/[C@H](C[C@@H]1CCNC1=O)NC(=O)[C@@H]1CCc2c(Cl)cc(NC(=O)c3cc(C)on3)c(=O)n21` [Compound 39, trans-(3′S,3′″S,4S)-4-({8′-Chloro-6′-[(5″-methylisoxazole-3″-carbonyl)amino]-5′-oxo-1′,2′,3′,5′-tetrahydroindolizine-3′-carbonyl}amino)-5-(2′″-oxopyrrolidin-3′″-yl)-pent-2-enoic Acid Ethyl Ester]: the TI in data set [1] (HRV-1A) was over 238; in data set [1] (HRV-2) it was over 625; in data set [1] (HRV-3) it was over 256; in data set [1] (HRV-9), over 208; in data set [1] (HRV-10) it was over 113; in data set [1] (HRV-16), over 175. Besides, the TI in data set [1] (HRV-25) is over 93; in data set [1] (HRV-39), over 208; in data set [1] (HRV-87) it was over 588; in data set [2], over 250.

With `C#CC[C@@H](C(=O)N[C@H](/C=C/C(=O)OC1CCCC1)C[C@@H]1CCNC1=O)n1cccc(NC(=O)c2cc(C)on2)c1=O` [Compound 40, trans-(2′S,3′″″S,4S)-4-[2′-(3″-{[1′″-(5″″-Methylisoxazol-3″″-yl)methanoyl]amino}-2′″-oxo-2′″H-pyridin-1′″-yl)pent-4″-ynoylamino]-5-(2′″″-oxopyrrolidin-3′″″-yl)pent-2-enoic Acid Cyclopentyl Ester], the TI in data set [1] (HRV-2) is over 192; in data set [1] (HRV-3) it was over 178; in data set [1] (HRV-9), over 46; in data set [1] (HRV-11), over 1666; in data set [1] (HRV-13) it was over 67; in data set [1] (HRV-16) it was over 56. Also, the TI in data set [1] (HRV-19) is over 166; in data set [1] (HRV-23), over 181; in data set [1] (HRV-25), over 20; in data set [1] (HRV-39) it was over 61; in data set [1] (HRV-78) it was over 81; in data set [1] (HRV-87), over 120. In addition, the results for the TI in data set [1] (HRV-Hanks) and in data set [2] were over 86 and over 370, respectively.

As for `C#CC[C@@H](C(=O)N[C@H](/C=C(\C)C(=O)OCC)C[C@@H]1CCNC1=O)n1cccc(NC(=O)c2cc(C)on2)c1=O` [Compound 44, trans-(2′S,3′″″S,4S)-2-Methyl-4-[2′-(3″-{[1′″-(5″″-methylisoxazol-3″″-yl)methanoyl]amino}-2′″-oxo-2′″H-pyridin-1′″-yl)pent-4″-ynoylamino]-5-(2′″″-oxopyrrolidin-3′″″-yl)pent-2-enoic Acid Ethyl Ester], the TI in data set [1] (HRV-2) is over 8; in data set [1] (HRV-10), over 17; in data set [1] (HRV-16), over 9; in data set [1] (HRV-25), over 8; in data set [2], over 6.

For the origin of these results see patent US6514997B2, “Antipicornaviral compounds and compositions, their pharmaceutical uses, and materials for their synthesis” (Agouron Pharmaceuticals, Inc., priority 1999, dated 2003).
